Data from PMC11723632, “Discovery of Nanosota-EB1 and -EB2 as Novel Nanobody Inhibitors Against Ebola Virus Infection” (2024).

Test system: EBOV GP-ΔM (EBOV GP ectodomain lacking the mucin-like domain), Ebola virus (EBOV), strain Zaire, Q05320 33-632

For “EBOV GP-ΔM (EBOV GP ectodomain lacking the mucin-like domain) excluding residues 312–463; N-linked glycan on Asn563; N-linked glycan on Asn563”, the stoichiometry N was 3.
